For experiment [1], the system named is L. pifanoi axenic amastigotes. As to the kind of experiment: Leishmanicidal activity on axenic amastigotes (MTT reduction).
Experiment [2] addresses LdGSK-3s (Leishmania donovani, UniProt A6N857). As to the kind of experiment: Inhibition of recombinant LdGSK-3s with Kinase Glo. The format is biochemical. The method, then:
Extraction, purification, and evaluation of compounds against recombinant LdGSK-3s was carried out as described. For that, a recombinant LdGSK-3s with a His-tag was obtained as inclusion bodies, that were further solubilized, and purified by chromatography first on a Ni^2+ column an in a second step on a DEAE (diethylaminoethyl) ionic exchange column. Samples were made in duplicate, and assays were repeated at least three times. IC50 (inhibitory concentration that decreases enzymatic activity by 50%) was calculated using the statistical module of SigmaPlot v11.0 software. Evaluation of compounds against hGSK-3β was performed using human recombinant GSK-3β purchased from Millipore as described previously. Compounds were prepared as a 10 mM stock solution in DMSO.
In general terms: Kinase-Glo measures the ATP left after a reaction by luminescence.

By UniProt entry, the sequences of proteins in these tests, tags left out. Residues count along the entry.
UniProt A6N857, 1-355: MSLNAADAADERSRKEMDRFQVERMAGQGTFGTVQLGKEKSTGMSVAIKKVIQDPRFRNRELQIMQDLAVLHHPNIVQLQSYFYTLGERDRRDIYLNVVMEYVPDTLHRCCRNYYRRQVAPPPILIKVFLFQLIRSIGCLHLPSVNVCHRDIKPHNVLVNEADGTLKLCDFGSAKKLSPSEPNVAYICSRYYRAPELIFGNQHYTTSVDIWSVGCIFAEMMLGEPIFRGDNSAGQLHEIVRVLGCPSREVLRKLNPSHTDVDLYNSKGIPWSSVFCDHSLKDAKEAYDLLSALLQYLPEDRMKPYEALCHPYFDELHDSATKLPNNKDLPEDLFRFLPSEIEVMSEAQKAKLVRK

The test system of experiment [3] is L. infantum promastigotes. The experiment can be described thus: Leishmanicidal activity on promastigotes (MTT reduction), Table 2 and Table S1. The format is cell-based, Leishmania infantum. The method, then: Both activities were assessed by inhibition of MTT (3-(4,5-dimethylthiazol-2-yl)-2,5-diphenyltetrazolium bromide) reduction, as described in [34]. Samples were made in triplicate and assays were repeated at least twice. DMSO content in the medium was adjusted to 0.25% v/v (final concentration), regardless of the final concentration of the drug, and for the control, the untreated parasites. ICx (inhibitory concentration that inhibits parasite growth or enzymatic activity by x%) was calculated using the statistical module of SigmaPlot v11.0 software.
In a step ahead, the leishmanicidal activity of the compounds on L. pifanoi axenic amastigotes and L. infantum promastigotes was evaluated. Axenic Leishmania amastigotes afford the appraisal of the leishmanicidal activity without the constrains imposed on the access of the compounds to intracellular amastigotes within the parasitophorous vacuole, as well as to preclude the interference of the compounds via host–parasite interface in the final activity. For that, the axenic line of L. pifanoi amastigotes belonging to the mexicana complex was chosen, as in this species the infectivity, antigenicity, and metabolic identity between axenic and intracellular amastigotes have been consistently validated.
(In general: Tetrazolium dyes change colour on reduction, which living cells bring about.)

Setting [4] is: read-out: L. pifanoi Axenic Amastigotes IC50.
Where [5] appears, read: read-out: L. infantum Promastigotes IC50.

Where two headings read alike, the source gives them in different places.

Regarding `OCC(O)COc1cscc1-c1ccccc1` (stereo not drawn), the half-maximal inhibitory concentration (IC50) (as a rule, the midpoint of a concentration-inhibition curve) in experiment [1] (setting [4]) is over 50 µM; in experiment [2] (read-out: LdGSK-3s IC50), over 10 µM; in experiment [3] (setting [5]), over 50 µM.
As to `O=C(Cc1ccccc1)NCC(=O)OCC(=O)Nc1nc2ccccc2s1`, the IC50 in experiment [1] (setting [4]) was over 50 µM; in experiment [2] (read-out: LdGSK-3s IC50) it was over 10 µM; in experiment [3] (setting [5]), over 50 µM.
Consider `O=C1C(=O)N(Cc2ccccc2)c2ccccc21`, for which the 50% inhibitory concentration (IC50) in experiment [1] (setting [4]) was over 50 µM; in experiment [2] (read-out: LdGSK-3s IC50), over 10 µM; in experiment [3] (setting [5]), over 50 µM.
`CNS(=O)(=O)c1ccccc1CNC(=O)c1ccccc1`: the figures for the IC50 in experiment [1] (setting [4]), in experiment [2] (read-out: LdGSK-3s IC50) and in experiment [3] (setting [5]) were over 50 µM, over 10 µM and over 50 µM, respectively.
As for `CCSc1nc2c(Cl)cccc2c(=O)n1-c1c(F)cccc1F`, the results for the 50% inhibitory concentration (IC50) in experiment [1] (setting [4]), in experiment [2] (read-out: LdGSK-3s IC50) and in experiment [3] (setting [5]) were over 50 µM, over 10 µM and over 50 µM, respectively.
With `COc1ccccc1NC(=O)NCc1cccnc1`, the concentration for half-maximal inhibition (IC50) in experiment [1] (setting [4]) is over 50 µM; in experiment [2] (read-out: LdGSK-3s IC50), over 10 µM; in experiment [3] (setting [5]) it was over 50 µM.
On to `CCOC(=O)c1sc(NC(=O)CCc2cc(OC)c(OC)c(OC)c2)nc1C`, for which the IC50 in experiment [1] (setting [4]) was over 50 µM; in experiment [2] (read-out: LdGSK-3s IC50) it was over 10 µM; in experiment [3] (setting [5]), over 50 µM.
For `Oc1ccc(CNc2ncnc3[nH]ccc23)cc1`, the IC50 in experiment [1] (setting [4]) is over 50 µM; in experiment [2] (read-out: LdGSK-3s IC50), over 10 µM; in experiment [3] (setting [5]), over 50 µM.
With `O=C1NS(=O)(=O)Nc2ccccc21`, the figures for the IC50 in experiment [1] (setting [4]), in experiment [2] (read-out: LdGSK-3s IC50) and in experiment [3] (setting [5]) were over 50 µM, over 10 µM and over 50 µM, respectively.
In the case of `CN1C(=O)c2ccccc2S(=O)(=O)NC1=NCc1ccccc1`, the results for the half-maximal inhibitory concentration (IC50) in experiment [1] (setting [4]), in experiment [2] (read-out: LdGSK-3s IC50) and in experiment [3] (setting [5]) were over 50 µM, over 10 µM and over 50 µM, respectively.
For `COC(=O)c1sc(C)c(C)c1O`, the IC50 in experiment [1] (setting [4]) was over 50 µM; in experiment [2] (read-out: LdGSK-3s IC50), over 10 µM; in experiment [3] (setting [5]), over 50 µM.
Turning to `O=c1c2ccccc2n(Cc2ccc(C(F)(F)F)cc2)c(=S)n1Cc1ccccc1`, the half-maximal inhibitory concentration (IC50) in experiment [1] (setting [4]) is over 50 µM; in experiment [2] (read-out: LdGSK-3s IC50), over 10 µM; in experiment [3] (setting [5]), over 25 µM.
Taken in the same sequence, the figures for `Cc1cccc(-c2nc(CN3CCC[C@@H](C(=O)NCc4ccncc4)C3)c(C)o2)c1` were over 50 µM, over 10 µM and over 50 µM.
Taken in the same sequence, the figures for `COc1ccc(NC2=NS(=O)(=O)N=C2N)cc1OC` were over 50 µM, over 10 µM and over 50 µM.
Taken in the same sequence, the figures for `COC(=O)c1ccccc1S(=O)(=O)N=C(N)N(C)C` were over 50 µM, over 10 µM and over 50 µM.
In the case of `Cc1sc(NC(=O)COC(=O)CNC(=O)c2ccccc2)nc1-c1ccccc1`, the IC50 in experiment [1] (setting [4]) is over 50 µM; in experiment [2] (read-out: LdGSK-3s IC50) it was over 10 µM; in experiment [3] (setting [5]), over 50 µM.
As for `Cn1c(=O)c(C(=O)NCC(=O)NCC(=O)OCc2ccccc2)c(O)c2ccccc21`, the IC50 in experiment [1] (setting [4]) was over 50 µM; in experiment [2] (read-out: LdGSK-3s IC50), over 10 µM; in experiment [3] (setting [5]), over 50 µM.
In the case of `Cn1c(=O)c(C(=O)NNC(=O)CC#N)c(O)c2ccccc21`, the half-maximal inhibitory concentration (IC50) in experiment [1] (setting [4]) is over 50 µM; in experiment [2] (read-out: LdGSK-3s IC50), over 10 µM; in experiment [3] (setting [5]) it was over 50 µM.
As for `CCCCCCCC(=O)NNC(=O)c1c(O)c2ccccc2n(C)c1=O`, the IC50 in experiment [1] (setting [4]) is 20.8 µM; in experiment [2] (read-out: LdGSK-3s IC50) it was over 10 µM; in experiment [3] (setting [5]) it was over 50 µM.
As for `FC(F)(F)c1ccc(C(=Nc2ccccc2)NC(=S)NCc2cccnc2)cc1`, the IC50 is over 25 µM in experiment [1] (setting [4]), over 10 µM in experiment [2] (read-out: LdGSK-3s IC50) and over 25 µM in experiment [3] (setting [5]).
As to `CN(c1ccccc1Br)S(=O)(=O)c1nn(C)cc1N`, the IC50 in experiment [1] (read-out: L. pifanoi Axenic Amastigotes IC50, tested form: HCl) is over 50 µM; in experiment [2] (read-out: LdGSK-3s IC50, tested form: HCl), over 10 µM; in experiment [3] (read-out: L. infantum Promastigotes IC50, tested form: HCl), over 50 µM.
As to `O=C(CNC(=O)c1ccccc1)NC(Cc1c[nH]c2ccccc12)C(=O)NCCN1CCOCC1` (stereo not drawn), the IC50 in experiment [1] (setting [4]) was over 50 µM; in experiment [2] (read-out: LdGSK-3s IC50), over 10 µM; in experiment [3] (setting [5]), over 50 µM.

The values are drawn from paper PMC9139002, “Naphthoquinone as a New Chemical Scaffold for Leishmanicidal Inhibitors of Leishmania GSK-3” (Biomedicines, 2022).
